Compound potency records, mixed from different reports. Data source: NIAID ChemDB in PubChem.

Common to all: tests on isolated targets; agent: HIV-1; target: Reverse transcriptase

Conditions beyond the fields shown may differ between rows. Two numbers with a dash give a range or band. ICn is the concentration giving n% inhibition. Fold resistance: result on the changed form divided by that on wild type. An empty or dashed field is not shown.

smiles,strain,mutations,read by,endpoint,result
CN(C)S(=O)(=O)c1ccc(NC(=O)CSc2nnnn2-c2ccc(C(C)(C)C)cc2Cl)c(Cl)c1,,RT-K103 Y181C,PicoGreen / fluorescence,IC50,<1 µM
O=c1cc(Cc2ccccc2)nc(SCCCCO)[nH]1,,RT-L100I,,Ki,200 µM
CCN1c2ncc(CCOc3ccc(C(=O)NS(=O)(=O)c4ccccc4)cc3C)cc2C(=O)N(C)c2cccnc21,IIIB,RT-K103N Y181C,nucleotide incorporation / radiometric,fold resistance,>2
CCN1c2ncc(CCOc3cccc4c3ccc[n+]4[O-])cc2C(=O)N(C)c2ccc(Cl)nc21,,RT-K103N P225H,nucleotide incorporation / radiometric,fold resistance,1.7
Cc1c(Cc2ccccc2)nc(SCCCCO)[nH]c1=O,,,,Ki,70 µM
O=[N+]([O-])c1ccc2c(c1)CN(c1nn3c(C4CC4)nnc3c3ccccc13)CC2,IIIB,,RT activity / fluorescence,IC90,15.4 µM
CC(C)(C#Cc1ccc(NC(=O)CSc2nnnn2-c2cc(C(F)(F)F)ccc2Cl)c(Cl)c1F)C(=O)O,,RT-K103 Y181C,PicoGreen / fluorescence,IC50,<1 µM
c1ccc2c(c1)CN(c1nn3c(C4CC4)nnc3c3ccccc13)C2,KER2008,,RT activity / fluorescence,IC90,>100 µM
CCN1c2ncc(CCOc3ccc(-c4cc(C(=O)O)on4)cc3C)cc2C(=O)N(C)c2cccnc21,IIIB,,nucleotide incorporation / radiometric,IC50,<0.05 µM
CCN1c2ncc(CCOc3ccc(C(=O)O)c4c3CCC4)cc2C(=O)N(C)c2cccnc21,,RT-Y188L,nucleotide incorporation / radiometric,fold resistance,>10
CCN1c2ncc(CCOc3ccc(-c4ccc(C(=O)O)c[n+]4[O-])cc3C)cc2C(=O)N(C)c2cccnc21,IIIB,RT-K103N Y181C,nucleotide incorporation / radiometric,fold resistance,1
Nc1cc2c(cc1F)CN(c1nn3c(C4CC4)nnc3c3ccccc13)CC2,IIIB,,RT activity / fluorescence,IC90,3.1 µM
CCc1cc(NCc2nc3c(C)ccc(C)c3o2)c(=O)[nH]c1C,,RT-Y181S,nucleotide incorporation,fold resistance,90.8
CCN1c2ncc(CCOc3ccc(/C=C(\C)C(=O)O)c4ccccc34)cc2C(=O)N(C)c2ccc(F)nc21,,RT-Y188L,nucleotide incorporation / radiometric,fold resistance,>10
Cc1nnc2c3ccccc3c(N3CCc4c(F)cccc4C3)nn12,98US_MSC5016,,RT activity / fluorescence,IC90,19.4 µM
Cc1c(Cc2ccccc2)nc(NCCCCN)[nH]c1=O,,RT-V179D,,Ki,98 µM
CN1CCN(S(=O)(=O)c2ccc(NC(=O)CSc3nnnn3-c3ccc(C4CC4)cc3Cl)c(Cl)c2)CC1,WT,,PicoGreen / fluorescence,IC50,<1 µM
CCN1c2ncc(CCOc3ccc(-c4cccc(C(C)C(=O)O)c4)cc3C)cc2C(=O)N(C)c2cccnc21,IIIB,,nucleotide incorporation / radiometric,IC50,<0.05 µM
O=C(CSc1nnnn1-c1ccc(C2CC2)cc1Cl)Nc1ccc(C#CCCN2CCC(O)CC2)cc1Cl,,RT-K103 Y181C,PicoGreen / fluorescence,IC50,<1 µM
CCN1c2ncc(CCOc3ccc(C(=O)c4ccc(C(=O)O)cc4)cc3C)cc2C(=O)N(C)c2cccnc21,IIIB,,nucleotide incorporation / radiometric,IC50,<0.05 µM
CC(C)(C#Cc1ccc(NC(=O)CSc2nnnn2-c2ccc(C(C)(C)C)cc2Cl)c(Cl)c1)OCC(=O)Nc1ccc(O)cc1,WT,,PicoGreen / fluorescence,IC50,<1 µM
CCN1c2ncc(CCOc3ccc(C(=O)O)c4ccccc34)cc2C(=O)Nc2c(C)cc(F)nc21,,RT-V106A,nucleotide incorporation / radiometric,fold resistance,1–10
CC(C)(C)c1ccc(-n2nnnc2SCC(=O)Nc2ccc(NC(=O)c3ccc(O)cc3)cc2Cl)c(Cl)c1,WT,,PicoGreen / fluorescence,IC50,<1 µM
CCN1c2ncc(CCOc3ccc(C(=O)N4CCC(C(=O)O)CC4)cc3C)cc2C(=O)N(C)c2cccnc21,IIIB,RT-K103N Y181C,nucleotide incorporation / radiometric,IC50,0.05–0.1 µM
CC(C)(C)c1ccc(-n2nnnc2SCC(=O)Nc2ccc(OCC(=O)Nc3ccccc3C(=O)O)cc2Cl)c(Cl)c1,WT,,PicoGreen / fluorescence,IC50,<1 µM
c1ccc(-c2nnc3c4ccccc4c(N4CCc5ccccc5C4)nn23)cc1,IIIB,,RT activity / fluorescence,IC90,>100 µM
CC(C)(C)c1ccc(-n2nnnc2SCC(=O)Nc2ccc(OCC(=O)NCCc3ccc(O)cc3)cc2Cl)c(Cl)c1,,RT-K103 Y181C,PicoGreen / fluorescence,IC50,<1 µM
CCN1c2ncc(CCOc3ccc(-c4cnccc4C)cc3C)cc2C(=O)N(C)c2cccnc21,IIIB,RT-K103N Y181C,nucleotide incorporation / radiometric,IC50,<0.05 µM
Cc1cc(NC(=O)c2ccc(NC(=O)CSc3nnnn3-c3ccc(C(C)(C)C)cc3Cl)c(Cl)c2)ccc1/C=C/C(=O)O,WT,,PicoGreen / fluorescence,IC50,<1 µM
FC(F)(F)c1ccc2c(c1)CN(c1nn3c(C4CC4)nnc3c3ccccc13)CC2,IIIB,,RT activity / fluorescence,IC90,5.02 µM
Cc1nnc(SCC(=O)Nc2ccc(-c3ccc(OCCN4CCCC4)cc3)cc2Cl)n1-c1ccc(C2CC2)cc1Cl,WT,,PicoGreen / fluorescence,IC50,<1 µM
CCN1c2ncc(CCOc3ccc(/C=C(\C)C(=O)O)c4ccccc34)cc2C(=O)N(C)c2ccc(Cl)nc21,,RT-K103N Y181C,nucleotide incorporation / radiometric,fold resistance,1–10
Cc1ccc(-n2nnnc2SCC(=O)Nc2ccc(-c3csc(N)n3)cc2Cl)c(Cl)c1,WT,,PicoGreen / fluorescence,IC50,<1 µM
CCN1c2ncc(CCOc3cccc(-c4cccc(C(=O)O)c4)c3)cc2C(=O)N(C)c2cccnc21,IIIB,,nucleotide incorporation / radiometric,IC50,>0.1 µM
CC(C)(C#Cc1ccc(NC(=O)CSc2nnnn2-c2ccc(C(C)(C)C)cc2Cl)c(Cl)c1)OCC(=O)Nc1ccon1,WT,,PicoGreen / fluorescence,IC50,<1 µM
CCN1c2ncc(CCOc3ccc(CC(=O)O)c4ccccc34)cc2C(=O)Nc2c(C)ccnc21,,RT-K103N Y181C,nucleotide incorporation / radiometric,fold resistance,>10

4 of the rows above, restated:

{"smiles": "O=[N+]([O-])c1ccc2c(c1)CN(c1nn3c(C4CC4)nnc3c3ccccc13)CC2", "strain": "IIIB", "read by": "RT activity / fluorescence", "endpoint": "IC90", "result": "15.4 µM"}
{"smiles": "Cc1nnc(SCC(=O)Nc2ccc(-c3ccc(OCCN4CCCC4)cc3)cc2Cl)n1-c1ccc(C2CC2)cc1Cl", "strain": "WT", "read by": "PicoGreen / fluorescence", "endpoint": "IC50", "result": "<1 µM"}
{"smiles": "CN(C)S(=O)(=O)c1ccc(NC(=O)CSc2nnnn2-c2ccc(C(C)(C)C)cc2Cl)c(Cl)c1", "mutations": "RT-K103 Y181C", "read by": "PicoGreen / fluorescence", "endpoint": "IC50", "result": "<1 µM"}
{"smiles": "CCN1c2ncc(CCOc3ccc(-c4cnccc4C)cc3C)cc2C(=O)N(C)c2cccnc21", "strain": "IIIB", "mutations": "RT-K103N Y181C", "read by": "nucleotide incorporation / radiometric", "endpoint": "IC50", "result": "<0.05 µM"}